# Source: US20220326221A1
# Biological target: mScarlet-SNAP25-GeNluc indicator protein
# Assay: cell-based or functional assay
substance,measurement,value
"BoNT/A (Metabiologics, Inc.) (from UniProt P0DPI0 2-1296)","reduction in green-positive cells per HPF, 1 nM BoNT/A for 24 hours, NG108 cells",25%
